In PMC4322620 (Frontiers in Pharmacology, 2015):
Some compounds may have been tested in ways that are not shown here.

Chains of the proteins cited; added tags and fusions are not shown.
UniProt P30989, whole entry: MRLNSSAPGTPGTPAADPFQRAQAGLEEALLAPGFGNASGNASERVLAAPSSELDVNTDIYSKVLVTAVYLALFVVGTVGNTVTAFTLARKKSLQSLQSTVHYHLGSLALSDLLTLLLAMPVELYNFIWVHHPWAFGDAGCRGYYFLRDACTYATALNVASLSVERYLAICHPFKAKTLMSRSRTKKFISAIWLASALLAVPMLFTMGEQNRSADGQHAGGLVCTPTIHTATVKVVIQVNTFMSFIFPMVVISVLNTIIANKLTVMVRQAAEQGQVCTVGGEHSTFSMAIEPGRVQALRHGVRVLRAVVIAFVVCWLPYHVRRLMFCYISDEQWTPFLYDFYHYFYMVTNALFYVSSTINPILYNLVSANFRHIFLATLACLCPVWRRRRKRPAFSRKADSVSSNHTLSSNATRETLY

Legend:
thermal pain = assay: Hot plate test; type: in vivo, mouse; details: mice, 4 mg/kg i.p. single dose, 55°C, n = 8 per group, mean ± SEM
formalin-induced pain [1] = details: ref Allen et al., 2007; cited from earlier work
formalin-induced pain [2] = details: mice, intrathecal administration; ref Craig et al., 2002; Han et al., 2008; cited from earlier work
hNTS1 = details: read-out: agonist potency (phosphoinositide accumulation); CHO cells expressing hNTS1; ref Craig et al. (1999); cited from earlier work
NTS1 (HT-29 cells) = NTS1 (HT-29 cells) (Homo sapiens, UniProt P30989); assay: Calcium activation assay (intracellular calcium mobilization); type: cell-based; details: Fluo-4-NW calcium fluorescence, peptide 10 μM–10 pM, % of 1 μM peak response, quadruplicate experiments
[3] = biological target: neurotensin receptors (HT-29 cells) (Homo sapiens, UniProt P30989); assay: Desensitization of neurotensin receptor activation (calcium mobilization after pre-exposure); type: cell-based
acute thermal pain = assay: Tail flick test; type: in vivo, mouse; details: mice, single dose 4 mg/kg i.p.
6 Hz (32 mA) seizures = assay: 6 Hz (32 mA) mouse model of epilepsy; details: doses 8–20 mg/kg, i.p., unpublished data

| SMILES | Hot plate (latency to hindlimb response) (thermal pain) | ED50 in rat formalin assay (formalin-induced pain [1]) | ED50 analgesic potency in formalin assay (formalin-induced pain [2]) | EC50 (hNTS1) | EC50 (NTS1 (HT-29 cells)) | DC50 ([3]; 10 min pre-exposure (10 μM–100 pM), wash, 15 min without peptide, re-exposure to same peptide at 1 μM, calcium mobilization, quadruplicate experiments) | DC50/EC50 ([3]; ratio of desensitization to agonist potency) | analgesic activity in the tail flick assay (in words) (acute thermal pain) | suppressing seizures in the 6 Hz (32 mA) model (6 Hz (32 mA) seizures) |
| --- | --- | --- | --- | --- | --- | --- | --- | --- | --- |
| CC[C@H](C)[C@H](NC(=O)[C@H](Cc1ccc(O)cc1)NC(=O)[C@@H]1CCCN1C(=O)[C@H](CCCCN)NC(=O)[C@H](CCCCN)NC(=O)[C@@H](NC(=O)[C@H](C)NC(=O)[C@H](CC(N)=O)NC(=O)[C@H](CO)NC(=O)CNC(=O)CNC(=O)[C@H](CCC(=O)O)NC(=O)[C@H](CCC(=O)O)NC(=O)[C@H](CO)NC(=O)[C@@H]1CCC(=O)N1)[C@@H](C)O[C@H]1O[C@H](CO)[C@H](O)[C@H](O[C@@H]2O[C@H](CO)[C@H](O)[C@H](O)[C@H]2O)[C@H]1NC(C)=O)C(=O)N[C@@H](CC(C)C)C(=O)O [Contulakin-G] | 4.94 ± 0.79 s | 0.07 nmol | 1 pmol | 0.96 µM | – | – | – | – | – |
| CC[C@H](C)[C@H](NC(=O)[C@H](Cc1ccc(O)cc1)NC(=O)[C@@H]1CCCN1C(=O)[C@H](CCCCN)NC(=O)[C@H](CCCCN)NC(=O)[C@H](CCC(=O)NC12CC3CC(C)(CC(C)(C3)C1)C2)NC(=O)[C@H](CCCCN)NC(=O)[C@H](CC(N)=O)NC(=O)[C@H](CO)NC(=O)CNC(=O)CNC(=O)[C@H](CCC(=O)O)NC(=O)[C@H](CCC(=O)O)NC(=O)[C@H](CO)NC(=O)[C@@H]1CCC(=O)N1)C(=O)N[C@@H](CC(C)C)C(=O)O [memantine-Contulakin-G] | 8.09 ± 1.06 s | – | – | – | 0.0432 µM | 1.51 µM | 35 | active | active |
